Data source: PubChem BioAssay AID1259414 (Drosophila RNAi Screening Center, 2018)
Aim: 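Host factors increasing or decreasing Wolbachia levels in cultured fly cells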 (primary screen). System: Drosophila JW18 cells infected with Wolbachia. Knock-down reagent: long dsRNA against Drosophila genes, 0.25 µg dsRNA per well of a 384-well plate. Duration: 5 days. Treatment: cells persistently infected with Wolbachia before knock-down; no added drug. Measurement: 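Imaged fluorescence in situ signal for Wolbachia 23S rRNA per DAPI-counted host cell, given as a robust z-score within each plate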. Direction: Wolbachia per cell robust z: higher = more Wolbachia per host cell than the plate typical. Rule for the call: 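Hit when robust z is 1.5 or more, or -1.5 or less, in at least two of three replicates; excludes dsRNAs with several or no targets, genes not expressed in JW18 and well A1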.
The screen tested about 24,000 reagents; this is a random part of those with a known target gene and a result. In the full data, about 1,210 (5%) were called active. 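Inactive calls also include excluded dsRNAs with several or no targets, genes unexpressed in JW18, and well A1, regardless of score.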 Names joined by + are all predicted targets of the reagent.

no.	predicted target	dsRNA	Wolbachia per cell robust z, rep 1	Wolbachia per cell robust z, rep 2	Wolbachia per cell robust z, rep 3	Call
1	Os-C	DRSC16778	0.131	0.0705	-0.176	inactive
2	Os-C	DRSC27993	-0.934	-0.738	-0.107	inactive
3	Eig71Ed (Ecdysone-induced gene 71Ed)	DRSC11151	0.46	-0.199	0.0976	inactive
4	Vps52 (Vacuolar protein sorting 52)	DRSC03050	1.14	0.926	0.408	inactive
5	CG10428	DRSC02054	-0.568	0.159	0.0248	inactive
6	lncRNA:CR44241 + Trpm	DRSC40571	0.171	0.88	0.233	inactive
7	GlcAT-P (Glucuronyltransferase P)	DRSC10603	-1.22	-0.121	0.265	inactive
8	GlcAT-P (Glucuronyltransferase P)	DRSC10604	0.62	-0.76	-0.0195	inactive
9	Liprin-gamma	DRSC04093	1.12	0.764	0.0288	inactive
10	Cpsf5 (Cleavage and polyadenylation specific factor 5)	DRSC10374	0.904	0.634	-0.224	inactive
11	Cpsf5 (Cleavage and polyadenylation specific factor 5)	DRSC27451	0.349	-3.34	1.03	inactive
12	Xport-A + Xport-B	DRSC15586	1.06	-0.896	-0.855	inactive
13	CG42287	DRSC40611	0.469	-0.876	-1.72	inactive
14	hkb (huckebein)	DRSC12377	1.21	0.171	1.36	inactive
15	hkb (huckebein)	DRSC23599	-1.13	-0.92	-0.678	inactive
16	nocte (no circadian temperature entrainment)	DRSC18123	0.481	-0.563	0.285	inactive
17	nocte (no circadian temperature entrainment)	DRSC28453	0.224	-0.021	-0.673	inactive
18	nclb (no child left behind)	DRSC07009	0.138	-3.97	1.04	inactive
19	Send2 (Spermathecal endopeptidase 2)	DRSC01906	-0.763	-1.22	-1.03	inactive
20	CG10561	DRSC02068	0.787	1.39	-0.15	inactive
21	ana2 (anastral spindle 2)	DRSC05952	0.305	0.446	-0.868	inactive
22	ana2 (anastral spindle 2)	DRSC26549	-3.22	-0.679	-0.0512	inactive
23	HP1b (Heterochromatin Protein 1b)	DRSC18418	0.181	0.556	0.136	inactive
24	HP1b (Heterochromatin Protein 1b)	DRSC29826	-0.327	0.0612	0.307	inactive
25	CG32483	DRSC07902	0.0697	-0.147	0.295	inactive
26	Gapdh1 (Glyceraldehyde 3 phosphate dehydrogenase 1)	DRSC07433	0.599	0.0791	0.394	inactive
27	Gapdh1 (Glyceraldehyde 3 phosphate dehydrogenase 1)	DRSC25746	-0.305	-0.445	-1.44	inactive
28	CG15177	DRSC12557	-3.63	-0.591	-2.07	inactive
29	CG15177	DRSC24687	0.617	0.122	-0.211	inactive
30	CG12986	DRSC19506	0.203	0.997	0.0378	inactive
31	eIF2Bgamma (eukaryotic translation initiation factor 2B subunit gamma)	DRSC07100	-0.959	-0.295	-3.35	inactive
32	eIF2Bgamma (eukaryotic translation initiation factor 2B subunit gamma)	DRSC29765	-2.18	-2.11	-0.0853	active
33	CG13056	DRSC09937	0.194	0.203	-0.0911	inactive
34	CG13056	DRSC29419	-0.0231	0.474	-2.59	inactive
35	CG13912	DRSC08381	0.426	0.651	0.913	inactive
36	CG9205	DRSC08642	0.183	-0.206	-8.32	inactive
37	AANATL2 (Arylalkylamine N-acetyltransferase-like 2)	DRSC03227	-0.138	-3.69	0.597	inactive
38	AANATL2 (Arylalkylamine N-acetyltransferase-like 2)	DRSC26485	-0.71	-0.809	-0.829	inactive
39	Cyp6a20 (Cytochrome P450 6a20)	DRSC07380	0.759	-0.342	-0.177	inactive
40	CG31870	DRSC21681	1.22	0.991	1.47	inactive
41	CG31870	DRSC27838	0.777	0.278	-0.724	inactive
42	CG14691	DRSC14914	-1.35	-0.0444	-7.93	inactive
43	CG14691	DRSC27957	-0.0525	-0.754	-1.19	inactive
44	CG33230	DRSC08602	0.431	-0.446	-0.46	inactive
45	CG33914	DRSC38887	-0.666	0.669	1.27	inactive
46	CG4496	DRSC02753	-1.41	-0.595	0.0969	inactive
47	Hand	DRSC02656	1.4	-0.275	-0.896	inactive
48	mRpL53 + CG33155	DRSC05461	0.0749	1.33	1.2	inactive
49	mRpL53 + CG33155	DRSC29467	-1.06	-6.19	-0.633	inactive
50	CG30075	DRSC05484	0.93	1.23	0.565	inactive
51	CG10984	DRSC09817	-0.00412	1.89	2.16	active
52	CG10984	DRSC28387	0.318	1.44	0.72	inactive
53	Est-P (Esterase P)	DRSC11163	0.475	-0.388	-4.22	inactive
54	Est-P (Esterase P)	DRSC39152	-0.273	1.05	1.31	inactive
55	CG8569	DRSC07214	0.779	0.809	0.225	inactive
56	Dab (Disabled)	DRSC11140	-0.319	0.858	1.23	inactive
57	Vm34Ca (Vitelline membrane 34Ca)	DRSC03475	0.759	0.409	-1.47	inactive
58	Vm34Ca (Vitelline membrane 34Ca)	DRSC25260	0.895	-1.18	-0.383	inactive
59	PTPMT1 (Protein tyrosine phosphatase, mitochondrial 1)	DRSC14235	0.592	-2.13	-1.64	active
60	D2hgdh (D-2-hydroxyglutaric acid dehydrogenase)	DRSC18577	0.0576	-0.647	0.398	inactive
61	D2hgdh (D-2-hydroxyglutaric acid dehydrogenase)	DRSC25824	0.377	-0.662	-3.47	inactive
62	CG9992	DRSC20226	0.0828	-1.11	-0.174	inactive
63	CG9992	DRSC21643	-1.66	-0.551	0.0125	inactive
64	CG32643	DRSC18962	0.596	-0.231	0.933	inactive
65	CG5561	DRSC00688	-0.435	0.571	-0.464	inactive
66	CG13455	DRSC10002	0.235	-2.12	0.331	inactive
67	CG9673	DRSC20202	-1.69	-0.663	-0.317	inactive
68	CG6614	DRSC02974	0.292	-0.000687	-0.97	inactive
69	Nup98-96 (Nucleoporin 98-96kD)	DRSC14209	1.26	1.07	-2.5	inactive
70	Nup98-96 (Nucleoporin 98-96kD)	DRSC14210	0.953	0.62	1.42	inactive
71	CG30105	DRSC05668	0.0316	0.254	0.0589	inactive
72	CG30105	DRSC29034	0.844	0.379	0.661	inactive
73	GstD9 (Glutathione S transferase D9)	DRSC14185	-2.42	0.571	0.231	inactive
74	GstD9 (Glutathione S transferase D9)	DRSC25307	-0.0169	-1.54	-0.171	inactive
75	CG6621	DRSC16076	-1.2	-0.446	-2.08	inactive
76	CG6621	DRSC26979	1.16	-0.718	1.09	inactive
77	Tpl94D (Transition protein-like 94D)	DRSC13593	0.804	1.09	0.723	inactive
78	CG30049	DRSC21345	0.772	-0.864	0.787	inactive
79	CG30049	DRSC26709	0.551	1.37	1.15	inactive
80	intr (intrepid)	DRSC14528	1.47	0.715	0.248	inactive
81	CDase (Ceramidase)	DRSC14932	-0.906	-0.77	-0.549	inactive
82	Tpc2	DRSC04322	0.213	-0.84	-0.446	inactive
83	Him (Holes in muscle)	DRSC19638	-5.11	0.611	-0.528	inactive
84	Orc5 (Origin recognition complex subunit 5)	DRSC03390	-0.0297	-0.337	-0.517	inactive
85	Orc5 (Origin recognition complex subunit 5)	DRSC28207	0.63	0.274	-1.29	inactive
86	CG43658	DRSC19455	0.165	0.0784	-1.62	inactive
87	CG43658	DRSC20111	-0.218	0.0683	-0.757	inactive
88	CG43658	DRSC25232	-7.09	-1.52	-0.303	active
89	CG43658	DRSC25445	-0.352	-0.997	-0.193	inactive
